{"source": "paper PMC5701626", "key": {"HLA A2 on T2 cells": {"test_system": "HLA A2 on T2 cells", "assay": "T2 peptide–HLA-A2 stability assay (HLA-A2 surface staining)", "details": "T2 cells incubated with peptide 22 h, washed, cultured in excess AIM-V at 37°C; result in words"}, "HLA A2": {"test_system": "HLA A2", "assay": "pMHC stability by SPR (868 TCR binding over time at 37°C)", "details": "SPR chip at 37°C, 868 TCR injected at 100 µM over 720 min, 8 time points, drop in RUs"}}, "note": "The match of structure and compound is tentative."}
{"smiles": "CC[C@H](C)[C@H](NC(=O)[C@@H](NC(=O)[C@H](CC(N)=O)NC(=O)[C@H](Cc1ccccc1)NC(=O)[C@H](CC(C)C)NC(=O)[C@@H](N)CO)[C@@H](C)O)C(=O)N[C@@H](C)C(=O)N[C@H](C(=O)N[C@@H](CC(C)C)C(=O)O)C(C)C", "values": [{"measurement": "HLA A2 remaining at T2 cell surface after peptide removal", "setting": "HLA A2 on T2 cells", "result": "had decayed in half this time"}, {"measurement": "t1/2", "setting": "HLA A2", "result": 1.98, "unit": "h"}]}
